Data on twelve molecules can be found in paper PMC11363325, “A Novel Prodrug Strategy Based on Reversibly Degradable Guanidine Imides for High Oral Bioavailability and Prolonged Pharmacokinetics of Broad-Spectrum Anti-influenza Agents” (ACS Central Science, 2024).

Like-named read-outs stand apart in the source and are kept apart here.

Series [1] relates to A/Puerto Rico/8/1934 (PR8; H1N1).
Series [2] concerns A/Hong Kong/8/1968 (HK; H3N2).

With `NC(=O)c1ncn([C@@H]2O[C@H](CO)[C@@H](O)[C@H]2O)n1` [RBV, Ribavirin, reference compound], the results for the “S.I. (ratio of CC50 to EC50)” value (in series [1]; in series [2]; in the series on B/Lee/1940 (Lee)) were “(>9.0)”, “(>4.6)” and “(>7.5)”, respectively.

`CCC(CC)O[C@@H]1C=C(C(=O)O)C[C@H](N=C(N2C(=O)c3ccccc3C2=O)N2C(=O)c3ccccc3C2=O)[C@H]1NC(C)=O` [OSC-GCDI(P)]: the “S.I. (ratio of CC50 to EC50)” value in series [1] (PR8) was “(>3333)”; in series [2] (HK) it was “(>10,000)”; in the series on B/Lee/1940 (Lee) (Lee) it was “(>44.2)”.

On to `NC12CC3CC(CC(C3)C1)C2` [AMT, Amantadine, reference compound], for which the “S.I. (ratio of CC50 to EC50)” value in series [2] (HK) is “(>64.1)”.

Consider `CCC(CC)O[C@@H]1C=C(C(=O)O)C[C@H](N=C(N2C(=O)CCC2=O)N2C(=O)CCC2=O)[C@H]1NC(C)=O` [OSC-GCDI(S)], for which the entries for the “S.I. (ratio of CC50 to EC50)” value (in series [1] (PR8); in series [2] (HK); with B/Lee/1940 (Lee) (Lee)) were “(>1667)”, “(>3333)” and “(>9.01)”, respectively.

In the case of `CCC(CC)O[C@@H]1C=C(C(=O)O)C[C@H](N=C(N2C(=O)[C@H]3CCCC[C@H]3C2=O)N2C(=O)[C@H]3CCCC[C@H]3C2=O)[C@H]1NC(C)=O` [OSC-GCDI(C)], the “S.I. (ratio of CC50 to EC50)” value in series [1] (PR8) was “(>10,000)”; in series [2] (HK), “(>20,000)”; in the series on B/Lee/1940 (Lee) (Lee), “(>45.2)”.

Regarding `CCC(CC)O[C@@H]1C=C(C(=O)O)C[C@H](N=C(N2C(=O)CC(C)(C)C2=O)N2C(=O)CC(C)(C)C2=O)[C@H]1NC(C)=O` [OSC-GCDI(D)], the “S.I. (ratio of CC50 to EC50)” value in series [1] (PR8) is listed as “(>1429)”; in series [2] (HK) it was “(>3333)”; with B/Lee/1940 (Lee) (Lee) it was “(>7.3)”.

In the case of `CCC(CC)O[C@@H]1C=C(C(=O)O)C[C@H](N=C(N2C(=O)[C@H]3CC=CC[C@H]3C2=O)N2C(=O)[C@H]3CC=CC[C@H]3C2=O)[C@H]1NC(C)=O` [OSC-GCDI(Ce)], the results for the “S.I. (ratio of CC50 to EC50)” value (in series [1] (PR8); in series [2] (HK); in the series with B/Lee/1940 (Lee) (Lee)) were “(>3333)”, “(>5000)” and “(>8.4)”, respectively.

Take `CCC(CC)O[C@@H]1C=C(C(=O)O)C[C@H](N=C(N2C(=O)C3CCC(C)CC3C2=O)N2C(=O)C3CCC(C)CC3C2=O)[C@H]1NC(C)=O` (stereo partly shown) [OSC-GCDI(CM)]: the “S.I. (ratio of CC50 to EC50)” value is listed as “(>3333)” in series [1] (PR8), “(>10,000)” in series [2] (HK) and “(>12.0)” with B/Lee/1940 (Lee) (Lee).

As for `CCC(CC)O[C@@H]1C=C(C(=O)O)C[C@H](NC(=N)N)[C@H]1NC(C)=O` [GOC, guanidino oseltamivir carboxylate, reference compound], the results for the “S.I. (ratio of CC50 to EC50)” value (in series [1] (PR8); in series [2] (HK); with B/Lee/1940 (Lee) (Lee)) were “(>20,000)”, “(>20,000)” and “(>142.9)”, respectively.

As to `CCCCC1CC(=O)N(C(=N[C@H]2CC(C(=O)O)=C[C@@H](OC(CC)CC)[C@@H]2NC(C)=O)N2C(=O)CC(CCCC)C2=O)C1=O` (stereo partly shown) [OSC-GCDI(B)], the “S.I. (ratio of CC50 to EC50)” value is given as “(>1111)” in series [1] (PR8), “(>2500)” in series [2] (HK) and “(>1.4)” in the series with B/Lee/1940 (Lee) (Lee).

Consider `CCC(CC)O[C@@H]1C=C(C(=O)O)C[C@H](N=C(N2C(=O)CC(C)C2=O)N2C(=O)CC(C)C2=O)[C@H]1NC(C)=O` (stereo partly shown) [OSC-GCDI(M)], for which the results for the “S.I. (ratio of CC50 to EC50)” value (in series [1] (PR8); in series [2] (HK); with B/Lee/1940 (Lee) (Lee)) were “(>2500)”, “(>5000)” and “(>18.0)”, respectively.

As for `CCC(CC)O[C@@H]1C=C(C(=O)O)C[C@H](N)[C@H]1NC(C)=O` [OSC, oseltamivir carboxylate, reference compound], the “S.I. (ratio of CC50 to EC50)” value in series [1] (PR8) is on record as “(>1000)”; in series [2] (HK), “(>20,000)”; with B/Lee/1940 (Lee) (Lee), “(>77.5)”.
